This data set can be described thus: general procedure: Boc solid-phase peptide synthesis; BHA-photoresin, [4-(2-chloropropionyl)phenoxy]acetamidomethyl-copoly(styrene-1% divinylbenzene) resin; BOP/HOBt. Conditions: late stage modification step, analytical HPLC.

Some peptides are written in HELM: one residue between dots, names in brackets for other building blocks, links after the first $.

As for “PEPTIDE1{[PhPrCO].[NMeVal].I.N.D.[LeuTet]}$$$$V2.0”, the “final HPLC purity” value came out at 90% pure.

For the substance “PEPTIDE1{[PhPrCO].[NMeVal].I.[TetAla].D.L}$$$$V2.0”, the “final HPLC purity” value turned out to be 100% pure.

Source of the values: EP0408973B1 (BIO-MEGA/BOEHRINGER INGELHEIM RESEARCH INC., priority 1989, dated 1991).
